Measured values from several laboratories, pooled; numbers as filed in NIAID ChemDB.

All rows: growth or infection tests; species: Candida albicans; endpoint: zone

Blank or dashed fields: not listed here. Zone: diameter of growth inhibition. Neighbouring rows are from separate reports.

structure | read by | strain or isolate | tested at | value
Oc1ccccc1C(/C=C/c1ccccc1)=NCCCn1ccnc1.[Cl][Cu] | agar diffusion |  | 100 µg/mL | 20 mm
COCCSc1nnc(C23CC4CC(CC(C4)C2)C3)n1-c1ccccc1 | agar diffusion | IFO 0583 | 200 µg/disc | <10 mm
Cc1ccc(/C=C/C(=NCCCn2ccnc2)c2ccccc2O)cc1.[Cl][Cu] | agar diffusion |  | 100 µg/mL | 21 mm
C/C=C/N1C(=S)N(CN2CCN(Cc3ccccc3)CC2)NC1C12CC3CC(CC(C3)C1)C2 | agar diffusion / agar | IFO 0583 | 200 µg/disc | <10 mm
O=C(CN1C(=O)S/C(=C\c2c(Cl)cccc2Cl)C1=O)c1ccc([N+](=O)[O-])cc1 | agar diffusion / agar | ATCC 90028 | 5000 µg/mL | 16 mm
O=C(O)CSc1nnc(C23CC4CC(CC(C4)C2)C3)n1-c1ccccc1 | agar diffusion | IFO 0583 | 200 µg/disc | 12 mm
O=C(CN1C(=O)S/C(=C\c2c(Cl)cccc2Cl)C1=O)c1ccccc1 | agar diffusion / agar | ATCC 90028 | 5000 µg/mL | 14 mm
Clc1ccccc1C(c1ccccc1)(c1ccccc1)n1ccnc1 | agar |  | 25 µg/mL | 35 mm
O=C(NCCn1c(-c2ccccc2)nc2ccc([N+](=O)[O-])cc2c1=O)Nc1ccc(C(F)(F)F)cc1 | broth dilution / agar diffusion | ATCC 66027 | 100 µg/mL | 15 mm
COc1ccc(N2C(=O)N(c3ccc(F)cc3)C(=N)C2=S)cc1 | agar diffusion / agar | IMRU-3669 | 5 mg/mL | 19 mm
C/C=C/C1=CC2=CC(=O)[C@](C)(OC(=O)c3c(C)cc(O)c(O)c3OC)C(=O)C2=CO1 | agar diffusion | ATCC 64548 | 25 µg/disc | 0 mm
CC1/C(=N\O)C(=O)NCCCOc2c(O)cc(c(Br)c2Br)C/C2=N\O[C@@H]3[C@H](Br)[C@@]4(C=C[C@@]3(O)C/C(=N\O)C(=O)NC[C@@H](O)[C@H](O)[C@H](O)CNC2=O)Oc2cc1cc(Br)c2O4 | agar diffusion |  | 10 µg/disc | 8 mm
COc1ccc(/C=C2\SC(=O)N(C(C)C(=O)c3ccccc3)C2=O)cc1 | agar diffusion / agar | ATCC 90028 | 5000 µg/mL | 16 mm
Cc1ccc(/C=N/n2c(C34CC5CC(CC(C5)C3)C4)n[nH]c2=S)cc1 | agar diffusion | IFO 3007 | 200 µg/disc | <10 mm
Cc1nc2ccccc2n(CC(=O)NN2C(=O)CSC2c2ccc(O)cc2)c1=O |  |  | 50 µg/mL | 13 mm
COC(=O)[C@H](C)NC(=O)[C@H](Cc1ccc(O)cc1)NC(=O)[C@@H]1CCCN1C(=O)[C@H](CC(C)C)NC(=O)CNC(=O)[C@@H]1CCCN1C(=O)[C@H](CC(=O)O)NC(C)(C)C |  |  | 6 µg/mL | 12 mm
N=C1C(=S)N(c2ccccc2)C(=O)N1c1ccc(F)cc1 | agar diffusion / agar | IMRU-3669 | 5 mg/mL | 13 mm
C[C@@H]1[C@@H](COCC(=O)O)C[C@@H](O[C@H]2[C@H](O)[C@@H](N(Cc3ccccc3)CC(O)C[N+](C)(C)C)[C@H](O[C@H]3[C@H](O)[C@@H](N(Cc4ccccc4)CC(O)C[N+](C)(C)C)[C@H](C)O[C@@H]3COCC(=O)O)O[C@@H]2COCC(=O)O)[C@H](N(Cc2ccccc2)CC(O)C[N+](C)(C)C)[C@H]1O | agar diffusion | RCMB 05031 | 1 mg/mL | 15.6 mm
COc1ccc(C2SCC(=O)N2NC(=O)Cn2c(=O)c(C)nc3ccccc32)cc1O |  |  | 100 µg/mL | 20 mm
Cc1ccc(/C=C/C(=NCCCn2ccnc2)c2ccccc2O)cc1.[Cl][Ni] | agar diffusion |  | 100 µg/mL | 19 mm
N#Cc1ccc(Nc2nc(Oc3ccnc4ccccc34)nc(N3CCN(c4ccccc4)CC3)n2)cc1C(F)(F)F | agar | MTCC 183 | 100 µg/mL | <10 mm
CSc1ccc(NC(=O)NCCn2c(-c3ccccc3)nc3ccc([N+](=O)[O-])cc3c2=O)cc1 | broth dilution / agar diffusion | ATCC 66027 | 100 µg/mL | 15 mm
C/C=C/N1C(=S)N(CN2CCN(c3ccccn3)CC2)NC1C12CC3CC(CC(C3)C1)C2 | agar diffusion / agar | IFO 0583 | 200 µg/disc | <10 mm
Oc1ccccc1/C=N/n1c(C23CC4CC(CC(C4)C2)C3)n[nH]c1=S | agar diffusion | IFO 3007 | 200 µg/disc | <10 mm
CCN1CCN(CN2NC(C34CC5CC(CC(C5)C3)C4)N(CC)C2=S)CC1 | agar diffusion / agar | IFO 0583 | 200 µg/disc | <10 mm
CCCCCCCCCCCCCCCCCCCCCC[C@H](O)CCCCCC | agar diffusion / agar |  | 1000 µg/mL | 12 mm
O=C1NC(=O)C(Cc2nc3ccccc3c(=O)o2)S1 |  |  | 20000 µg/mL | 11 mm
Cc1ccc(N2C(=O)N(c3ccc(F)cc3)C(=N)C2=S)cc1 | agar diffusion / agar | IMRU-3669 | 5 mg/mL | 13.5 mm
O=C1NC(=O)C(Cc2nc3ccccc3c3nc(=S)[nH]n23)S1 |  |  | 20000 µg/mL | 10 mm
Cc1ccc(S(=O)(=O)CNc2oc3[nH]c(=O)[nH]c(=O)c3c2-c2ccc(F)cc2)cc1 | agar diffusion / agar |  | 100 µg/mL | 15 mm
O=C(NCCn1c(-c2ccccc2)nc2ccc([N+](=O)[O-])cc2c1=O)Nc1ccccc1 | broth dilution / agar diffusion | ATCC 66027 | 100 µg/mL | 17 mm
O=C(CN1C(=O)S/C(=C\c2c(Cl)cccc2Cl)C1=O)c1ccc2ccccc2c1 | agar diffusion / agar | ATCC 90028 | 5000 µg/mL | 18 mm
C=C1CC[C@@H](OC(C)=O)[C@]2(C)[C@H](OC(C)=O)[C@H](OC(C)=O)[C@H](OC(C)=O)[C@@]3(CO3)[C@H]2[C@@H](OC(C)=O)[C@@]2(O)[C@H](C)C(=O)O[C@@H]2[C@@H]1Cl | agar diffusion / agar |  | 200 µg/mL | 8 mm
COc1ccc(C(=O)CN2C(=O)S/C(=C\c3c(Cl)cccc3Cl)C2=O)cc1 | agar diffusion / agar | ATCC 90028 | 5000 µg/mL | 18 mm
C=CC(C)(C)c1cc(C2CC(=O)c3c(cc(O)c(CC=C(C)C)c3O)O2)c(O)cc1O | agar diffusion / agar | hemoculture isolate | 2 mg/mL | 12 mm
Cc1nc2ccccc2n(CC(=O)NN2C(=O)CSC2c2ccccc2O)c1=O |  |  | 50 µg/mL | 9 mm
CCOC(=O)N1CCN(Cn2nc(C34CC5CC(CC(C5)C3)C4)n(/N=C/c3c(F)cccc3F)c2=S)CC1 | agar diffusion | IFO 3007 | 200 µg/disc | <10 mm
N#Cc1ccc(C(=O)CN2C(=O)S/C(=C\c3c(Cl)cccc3Cl)C2=O)cc1 | agar diffusion / agar | ATCC 90028 | 5000 µg/mL | 22 mm
S=c1[nH]nc(C23CC4CC(CC(C4)C2)C3)n1/N=C/c1ccc(Cl)cc1Cl | agar diffusion | IFO 3007 | 200 µg/disc | <10 mm
CCN1C(=S)N(CN2CCN(c3ccccc3OC)CC2)NC1C12CC3CC(CC(C3)C1)C2 | agar diffusion / agar | IFO 0583 | 200 µg/disc | <10 mm
C[C@H]1[C@H](O)[C@@H](C)/C=C/C=C/C=C/C=C/C=C/C=C/C=C/[C@H](O[C@@H]2O[C@H](C)[C@@H](O)[C@H](N)[C@@H]2O)C[C@@H]2O[C@](O)(C[C@@H](O)C[C@@H](O)CC[C@H](O)[C@@H](O)C[C@@H](O)CC(=O)O[C@H]1C)C[C@H](O)[C@H]2C(=O)O | agar diffusion | ATCC 10231 | 100 µg | 17 mm
Cc1ccc(S(=O)(=O)CNc2oc3[nH]c(=O)[nH]c(=O)c3c2-c2ccc(O)cc2)cc1 | agar diffusion / agar |  | 50 µg/mL | 0 mm
CCOC(=O)C1CCN(Cn2nc(C34CC5CC(CC(C5)C3)C4)n(/N=C/c3ccc(C)cc3)c2=S)CC1 | agar diffusion | IFO 3007 | 200 µg/disc | <10 mm
NC(=O)c1cc(C(=O)CN2C(=O)S/C(=C\c3c(Cl)cccc3Cl)C2=O)ccc1O | agar diffusion / agar | ATCC 90028 | 5000 µg/mL | 22 mm
O=[N+]([O-])c1ccc(/C=C/C(=NCCCn2ccnc2)c2ccccc2O)cc1.[Cl][Cu] | agar diffusion |  | 100 µg/mL | 23 mm
Cc1ccc(-c2c(NCS(=O)(=O)c3ccc(C)cc3)oc3[nH]c(=O)[nH]c(=O)c23)cc1 | agar diffusion / agar |  | 100 µg/mL | 0 mm
Fc1cccc(Cl)c1/C=N/n1c(C23CC4CC(CC(C4)C2)C3)n[nH]c1=S | agar diffusion | IFO 3007 | 200 µg/disc | <10 mm
S=c1n(CN2CCN(c3ccccc3)CC2)nc(C23CC4CC(CC(C4)C2)C3)n1-c1ccccc1 | agar diffusion | IFO 0583 | 200 µg/disc | <10 mm
CCc1cc(N)c(/C=N/NC(=O)N/N=C/c2cc(O)c(CC)cc2N)cc1O | agar diffusion / agar |  | 1 mg/mL | 9 mm
COc1ccc(/C=C2\SC(=O)N(CC(=O)c3ccccc3)C2=O)cc1 | agar diffusion / agar | ATCC 90028 | 5000 µg/mL | 18 mm
Cc1ccc(NC(=O)NCCn2c(-c3ccccc3)nc3ccc([N+](=O)[O-])cc3c2=O)cc1 | broth dilution / agar diffusion | ATCC 66027 | 100 µg/mL | 14 mm
C[C@@H]1[C@@H](COCC(=O)O)C[C@@H](O[C@H]2[C@H](O)[C@@H](N(Cc3cccs3)CC(O)C[N+](C)(C)C)[C@H](O[C@H]3[C@H](O)[C@@H](N(Cc4cccs4)CC(O)C[N+](C)(C)C)[C@H](C)O[C@@H]3COCC(=O)O)O[C@@H]2COCC(=O)O)[C@H](N(Cc2cccs2)CC(O)C[N+](C)(C)C)[C@H]1O | agar diffusion | RCMB 05031 | 1 mg/mL | 17.3 mm
N=C1C(=S)N(c2ccc(F)cc2)C(=O)N1c1ccc(Cl)cc1 | agar diffusion / agar | IMRU-3669 | 5 mg/mL | 23 mm
Cc1ccc(CN(CC(O)C[N+](C)(C)C)[C@@H]2[C@@H](O)[C@H](O[C@@H]3O[C@H](COCC(=O)O)[C@@H](O[C@@H]4C[C@H](COCC(=O)O)[C@@H](C)[C@H](O)[C@H]4N(Cc4ccc(C)cc4)CC(O)C[N+](C)(C)C)[C@H](O)[C@H]3N(Cc3ccc(C)cc3)CC(O)C[N+](C)(C)C)[C@@H](COCC(=O)O)O[C@H]2C)cc1 | agar diffusion | RCMB 05031 | 1 mg/mL | 12.3 mm
O=C1NC(=O)C(Cc2nc3ccccc3[nH]2)S1 |  |  | 20000 µg/mL | <7 mm
COc1ccc(C2SCC(=O)N2NC(=O)Cn2c(=O)c(C)nc3ccccc32)cc1OC |  |  | 100 µg/mL | 18 mm
C[C@@H]1[C@@H](COCC(=O)O)C[C@@H](O[C@H]2[C@H](O)[C@@H](N(Cc3ccc(Cl)cc3Cl)CC(O)C[N+](C)(C)C)[C@H](O[C@H]3[C@H](O)[C@@H](N(Cc4ccc(Cl)cc4Cl)CC(O)C[N+](C)(C)C)[C@H](C)O[C@@H]3COCC(=O)O)O[C@@H]2COCC(=O)O)[C@H](N(Cc2ccc(Cl)cc2Cl)CC(O)C[N+](C)(C)C)[C@H]1O | agar diffusion | RCMB 05031 | 1 mg/mL | 18 mm
CC1(CN2C(=N)C(=S)N(c3ccc(F)cc3)C2=O)CCC(N2C(=N)C(=S)N(c3ccc(F)cc3)C2=O)C(C)(C)C1 | agar diffusion / agar | IMRU-3669 | 5 mg/mL | 0 mm
COc1ccc(CN(CC(O)C[N+](C)(C)C)[C@@H]2[C@@H](O)[C@H](O[C@@H]3O[C@H](COCC(=O)O)[C@@H](O[C@@H]4C[C@H](COCC(=O)O)[C@@H](C)[C@H](O)[C@H]4N(Cc4ccc(OC)c(OC)c4)CC(O)C[N+](C)(C)C)[C@H](O)[C@H]3N(Cc3ccc(OC)c(OC)c3)CC(O)C[N+](C)(C)C)[C@@H](COCC(=O)O)O[C@H]2C)cc1OC | agar diffusion | RCMB 05031 | 1 mg/mL | 12.7 mm
Cn1c(SCCN2CCCC2)nnc1C12CC3CC(CC(C3)C1)C2 | agar diffusion | IFO 0583 | 200 µg/disc | <10 mm

The last 4 rows once more:

structure | read by | strain or isolate | tested at | value
C[C@@H]1[C@@H](COCC(=O)O)C[C@@H](O[C@H]2[C@H](O)[C@@H](N(Cc3ccc(Cl)cc3Cl)CC(O)C[N+](C)(C)C)[C@H](O[C@H]3[C@H](O)[C@@H](N(Cc4ccc(Cl)cc4Cl)CC(O)C[N+](C)(C)C)[C@H](C)O[C@@H]3COCC(=O)O)O[C@@H]2COCC(=O)O)[C@H](N(Cc2ccc(Cl)cc2Cl)CC(O)C[N+](C)(C)C)[C@H]1O | agar diffusion | RCMB 05031 | 1 mg/mL | 18 mm
CC1(CN2C(=N)C(=S)N(c3ccc(F)cc3)C2=O)CCC(N2C(=N)C(=S)N(c3ccc(F)cc3)C2=O)C(C)(C)C1 | agar diffusion / agar | IMRU-3669 | 5 mg/mL | 0 mm
COc1ccc(CN(CC(O)C[N+](C)(C)C)[C@@H]2[C@@H](O)[C@H](O[C@@H]3O[C@H](COCC(=O)O)[C@@H](O[C@@H]4C[C@H](COCC(=O)O)[C@@H](C)[C@H](O)[C@H]4N(Cc4ccc(OC)c(OC)c4)CC(O)C[N+](C)(C)C)[C@H](O)[C@H]3N(Cc3ccc(OC)c(OC)c3)CC(O)C[N+](C)(C)C)[C@@H](COCC(=O)O)O[C@H]2C)cc1OC | agar diffusion | RCMB 05031 | 1 mg/mL | 12.7 mm
Cn1c(SCCN2CCCC2)nnc1C12CC3CC(CC(C3)C1)C2 | agar diffusion | IFO 0583 | 200 µg/disc | <10 mm